Assay [1] deals with T1, porcine epidemic diarrhea virus S protein (PEDV-S1) (porcine epidemic diarrhea virus).
T1 chain: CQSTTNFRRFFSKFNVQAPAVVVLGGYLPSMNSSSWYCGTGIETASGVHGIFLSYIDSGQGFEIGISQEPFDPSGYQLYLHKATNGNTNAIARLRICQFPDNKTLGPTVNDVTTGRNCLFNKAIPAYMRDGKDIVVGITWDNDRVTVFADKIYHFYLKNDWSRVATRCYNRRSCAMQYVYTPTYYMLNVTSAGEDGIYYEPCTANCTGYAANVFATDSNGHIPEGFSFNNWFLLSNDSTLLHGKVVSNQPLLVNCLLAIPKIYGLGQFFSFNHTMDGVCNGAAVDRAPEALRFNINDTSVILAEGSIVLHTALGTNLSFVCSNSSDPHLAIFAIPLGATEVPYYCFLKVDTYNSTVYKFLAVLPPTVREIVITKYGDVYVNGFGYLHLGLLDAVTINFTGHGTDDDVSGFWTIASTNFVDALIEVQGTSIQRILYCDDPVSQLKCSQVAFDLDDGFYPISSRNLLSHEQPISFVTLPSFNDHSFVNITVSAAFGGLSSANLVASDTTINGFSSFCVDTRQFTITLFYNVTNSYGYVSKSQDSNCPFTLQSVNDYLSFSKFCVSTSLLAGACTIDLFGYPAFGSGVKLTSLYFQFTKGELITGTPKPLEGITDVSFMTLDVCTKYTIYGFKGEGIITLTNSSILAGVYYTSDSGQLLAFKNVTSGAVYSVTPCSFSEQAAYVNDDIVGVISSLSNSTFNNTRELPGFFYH
Put plainly: ELISA. The conditions noted are these: both partners purified. (In general: ELISA stands for enzyme-linked immunosorbent assay.)

For assay [2], the target named is T1, porcine epidemic diarrhea virus S …. Put plainly: SPR. The conditions noted are these: both partners purified.

FWKSKR [peptide 110766] returned a P/N value in assay [1] of 167.

One may read the Kd as the constant that tells how readily two partners part at equilibrium. Read a high Kd as lower affinity. Regarding FWKHRIFWKHRI [peptide 111740], in assay [2], the Kd came to 3.6 µM.

These data come from article PMC9965349 (Viruses, 2023).
